Here are results for one molecule from US8557762 (CHILDREN S HOSPITAL OF PHILADELPHIA, dated 2013).

In this experiment the target is purified enzymatic subunit of pseutarin C (pt-FXa) (Pseudonaja textilis), Q56VR3.

Values joined by “and” are separate entries in the source; they are usually repeats but may differ in a detail not shown here. Equal values may be shown once.

B1: pt-rFV-QQ (pt-FV variant with Arg742 and Arg788 replaced by Gln), Q7SZN0 31-1460 (protein)
chain: AQLREYHIAAQLEDWDYNPQPEELSRLSESDLTFKKIVYREYELDFKQEKPRDALSGLLGPTLRGEVGDSLIIYFKNFATQPVSIHPQSAVYNKWSEGSSYSDGTSDVERLDDAVPPGQSFKYVWNITAEIGPKKADPPCLTYAYYSHVNMVRDFNSGLIGALLICKEGSLNANGSQKFFNREYVLMFSVFDESKNWYRKPSLQYTINGFANGTLPDVQACAYDHISWHLIGMSSSPEIFSVHFNGQTLEQNHYKVSTINLVGGASVTADMSVSRTGKWLISSLVAKHLQAGMYGYLNIKDCGNPDTLTRKLSFRELMKIKNWEYFIAAEEITWDYAPEIPSSVDRRYKAQYLDNFSNFIGKKYKKAVFRQYEDGNFTKPTYAIWPKERGILGPVIKAKVRDTVTIVFKNLASRPYSIYVHGVSVSKDAEGAIYPSDPKENITHGKAVEPGQVYTYKWTVLDTDEPTVKDSECITKLYHSAVDMTRDIASGLIGPLLVCKHKALSVKGVQNKADVEQHAVFAVFDENKSWYLEDNIKKYCSNPSAVKKDDPKFYKSNVMYTLNGYASDRTEVLRFHQSEVVQWHLTSVGTVDEIVPVHLSGHTFLSKGKHQDILNLFPMSGESATVTMDNLGTWLLSSWGSCEMSNGMRLRFLDANYDDEDEGNEEEEEDDGDIFADIFIPSEVVKKKEEVPVNFVPDPESDALAKELGLIDDEGNPIIQPRREQTEDDEEQLMKASMLGLQSFKGSVAEEELKHTALALEEDAHASDPRIDSNSARNPDDIAGRYLQTINRGNKRRYYIAAEEVLWDYSPIGKSQVRSRAAKTTFKKAIFRSYLDDTFQTPSTGGEYEKHLGILGPIIRAEVDDVIEIQFKNLASRPYSLHAHGLLYEKSSEGRSYDDKSPELFKKDDAIMPNGTYTYVWQVPPRSGPTDNTEKCKSWAYYSGVNPEKDIHSGLIGPILICQKGMIDKYNRTIDIREFVLFFMVFDEEKSWYFPKSDKSTCEEKLIGVQSLHTFPAINGIPYQLQGLTMYKDENVHWHLLNMGGPKDIHVVNFHGQTFTEEGREDNQLGVLPLLPGTFASIKMKPSKIGTWLLETEVGENQERGMQALFTVIDKDCKLPMGLASGIIQDSQISASGHVGYWEPKLARLNNTGKYNAWSIIKKEHEHPWIQIDLQRQVVITGIQTQGTVQLLQHSYTVEYFVTYSEDGQNWITFKGRHSETQMHFEGNSDGTTVKENHIDPPIIARYIRLHPTKFYNRPTFRIELLGCEVEGCSVPLGMESGAIKNSEITASSYKKTWWSSWEPFLARLNLEGGTNAWQPEVNNKDQWLQIDLQHLTKITSIITQGATSMTTSMYVKTFSIHYTDDNSTWKPYLDVRTSMEKVFTGNINSDGHVKHFFKPPILSRFIRIIPKTWNQYIALRIELFGCEVF
B1: the Kd (commonly the constant that tells how readily two partners part at equilibrium) is 2.88 nM and 9.39 nM.
